Test results published in patent US20210186010A1, “SURFACES COMPRISING ATTACHED QUORUM SENSING MODULATORS” (priority 2015, published 2021).

Test system: Agr QS in the S. aureus reporter strain
Test: Fluorescence imaging / single-cell analysis of S. aureus reporter strain incubated with compounds in solution
Format: cell-based, Staphylococcus aureus
Settings: 100 nM AIP-I
Source text: FIG. 1 Includes FIG. 1A-FIG. 1C. FIG. 1A. illustrates the Agr QS responses of S. aureus to exogenously supplied agonists and antagonists. To follow the QS status of S. aureus cells growing on unmodified and chemically-modified surfaces, confocal microscopy and an S. aureus reporter strain that produced the fluorescent protein mKate2 in response to exogenous addition of AIP-I was used. The reporter strain was a ΔagrBDCA ΔRNAIII S. aureus mutant harboring a multicopy plasmid carrying agrCA driven by the native agrP2 promoter. […] The plasmid also harbored the Agr-activated agrP3 promoter fused to mkate2. Therefore, in response to exogenously provided AIP-I, the reporter strain fluoresced red. This QS response was repressed by the administration of TrAIP-II. A constitutively expressed sarAP1-gfpmut2 gene was introduced into the chromosome to enable normalization of QS responses^18. FIG. 1B. […]
FIG. 1B. Fluorescence images of the S. aureus reporter strain (pathways shown in panel FIG. 1A) after 3 h incubation with buffer or buffer containing 100 nM AIP-I agonist. […] Fluorescence images of the S. aureus reporter strain used in this study following 3 h incubation with TrAIP-II or with combinations of AIP-I and TrAIP-II. […]
FIG. 6. […] To identify the source of heterogeneity, the fluorescent protein distributions in individual cells was measured under different conditions. […]

## AIP-I
agrP3-mkate2 and agrP2-agrCA in the genome (FIG. 6E)
  Coefficient of variation σ/μ of the normalized QS response: 0.20 (±0.04)
Reporter strain with agrP2-agrCA and agrP3-mkate2 on plasmid (FIG. 6A)
  Coefficient of variation σ/μ of the normalized QS response: 0.69 (±0.03)
